Assay results: patent US7183094B2, “Bacterial mycothiol S-conjugate amidase family” (The Regents of the University of California, priority 1999, dated 2007)
Several values for one entry are separate records, joined by “and”; a condition that tells them apart may be missing. Equal values may be shown once.

Test system: M. smegmatis mc^2155 cells
Assay: M. smegmatis culture treated with mBBr: fate of mycothiol-related compounds and growth
Type: cell-based, Mycobacterium smegmatis
Description: Since mBBr is known to penetrate cells rapidly and to convert intracellular thiols to their bimane derivatives (Newton, et al. (1995) supra.), the fate of mycothiol in M. smegmatis cells treated with mBBr was examined to ascertain whether the reaction shown in FIG. 1C occurs in vivo. A logarithmic phase culture of M. smegmatis was cooled on ice to ˜3° C. to reduce enzymatic reactions prior to reaction with 0.5 mM mBBr. Excess reagent was reacted with 2-mercaptoethanol and the cells were pelleted, washed, and resuspended in a small amount of ice cold medium. The cells were diluted with prewarmed medium and replaced in the shaking incubator at 37° C. (time, t=0). Samples were removed and analyzed for intracellular and extracellular mycothiol related compounds over a 4 h interval (FIG. 3).
A logarithmic phase culture of M. smegmatis was cooled on ice to ˜3° C. to reduce enzymatic reactions prior to reaction with 0.5 mM mBBr. Excess reagent was reacted with 2-mercaptoethanol and the cells were pelleted, washed, and resuspended in a small amount of ice cold medium. The cells were diluted with prewarmed medium and replaced in the shaking incubator at 37° C. (time, t=0). Samples were removed and analyzed for intracellular and extracellular mycothiol related compounds over a 4 h interval (FIG. 3).
At t=0, […] per 100 mL (3.5 μmol per g RDW) of AcCySmB was present in the cells and […] per 100 mL was found in the medium. Within 5 min the cellular AcCySmB level had fallen to […] per 100 mL and the medium level increased to 220 nmol per 100 mL. Subsequent analyses found essentially all of the AcCySmB in the medium at a level of 225–230 nmol per 100 mL, accounting for 80–90% of the original cellular mycothiol content. No MSmB appears to be exported from cells as […] (<0.5%) was detected in the medium or the cell washes. A logarithmic phase culture (1 L) of M. smegmatis mc^2155 (OD600=1.2) in 7H9 Middlebrook medium was cooled on ice to 3° C. The iced culture was incubated with mBBr (0.5 mM from a 180 mM stock solution in acetonitrile) for 20 min; excess 2-mercaptoethanol (1.0 mM) was added, and the incubation continued on ice for an additional 10 min. The cells were pelleted by centrifugation and washed twice with 200 mL of sterile, ice-cold 7H9 Middlebrook medium to remove excess bimane derivative of 2-mercaptoethanol. The cells were resuspended in 50 mL of sterile ice cold medium and the experiment was initiated (t=0) by dilution into 950 mL of prewarmed (37° C.) 7H9 Middlebrook medium. The cell suspension was shaken in an incubator (225 rpm, 37° C.) and a “t=0” sample (100 mL) was removed from the culture within one min. This sample was mixed with an equal weight of ice and stored on ice until the second sample was taken similarly at 5 min, after which both were pelleted by centrifugation at 5000 g and 4° C. Additional samples were obtained in this manner at times up to 4 hours. An aliquot (0.5 mL) of supernatant was mixed with 0.5 mL of acetonitrile and incubated at 60° C. for 10 min. After centrifugation the supernatant was assayed by HPLC for bimane-labeled thiols in the medium. The pellet (always iced) was separated into 3 roughly equal parts in 1.5 mL microcentrifuge tubes and extracted for 10 min in 3 ways as follows.
The first sample was extracted using 1 mL of 60° C. acetonitrile-water for determination of cellular thiol-bimane derivatives. The second sample was extracted using 1 mL of 60° C. acetonitrile-water containing 2 mM mBBr and 20 mM tris(hydroxymethyl)aminomethane (Tris) pH 8.0 for determination of the sum of each cellular thiol and thiol-bimane derivative. The third sample was extracted using 1 mL of 60 C acetonitrile-water containing 5 mM N-ethylmaleimide (NEM) and 10 mM HEPES chloride pH 7.5. All tubes were centrifuged at 14000 g in a microcentrifuge and the supernatants removed for analysis. […]

N[C@H]1[C@@H](OC2[C@H](O)[C@H](O)C(O)[C@H](O)[C@H]2O)O[C@H](CO)[C@@H](O)[C@@H]1O (stereo partly drawn) [GlcN-Ins, 1-D-myo-inosityl-2-amino-2-deoxy-α-D-glucopyranoside]
increase of cellular GlcN-Ins above the normal level (t=0): ~25 fold

CC(=O)N[C@@H](CSCc1c(C)c(=O)n2c(=O)c(C)c(C)n12)C(=O)O [AcCySmB]
AcCySmB in medium as share of the original cellular mycothiol content (subsequent analyses, up to 4 h): 80–90%
AcCySmB level in the medium (subsequent analyses, up to 4 h): 225–230 nmol per 100 mL
AcCySmB found in the medium (t=0): 160 nmol per 100 mL and 160 mmol per 100 mL
cellular AcCySmB level (within 5 min at 37° C.): 8 mmol per 100 mL
medium AcCySmB level (within 5 min at 37° C.): 220 mmol per 100 mL and 220 nmol per 100 mL
